Anti-infective test results gathered from many reports (values: NIAID ChemDB through PubChem).

Common to all: whole-cell or culture tests; agent: Mycobacterium kansasii

a–b is a range or a potency band. MIC50, MIC90 and the like: level of inhibition, or share of isolates inhibited. Lines come from different laboratories, so protocols vary. Zone: diameter of growth inhibition. An empty or dashed field is not shown.

structure	strain or isolate	method	conditions	read-out	tested at	result
CC[C@H]1OC(=O)[C@H](C)[C@@H](O[C@H]2C[C@@](C)(OC)[C@@H](O)[C@H](C)O2)[C@H](C)[C@@H](O[C@@H]2O[C@H](C)C[C@H](N(C)C)[C@H]2O)[C@](C)(OC)C[C@@H](C)C(=O)[C@H](C)[C@@H](O)[C@]1(C)O	104 clinical isolates	-	-	MIC50	-	≤0.06 µg/mL
O=C(Nc1ccc(Br)cc1)c1cc(Cl)ccc1OP(=O)(Oc1ccccc1)c1ccccc1	My 6509/96	-	14 d	MIC	-	8 µM
CCCCCCNC(=O)Nc1ccc(S(=O)(=O)Nc2cc(C)on2)cc1	235/80	broth dilution / absorbance	14 d	MIC100	-	250 µM
O=C(Nc1ccc(Cl)c(Cl)c1)c1cc(Cl)ccc1OP(=O)(Oc1ccccc1)Oc1ccccc1	My 6509/96	-	14 d	MIC	-	4 µM
CCCN(CCC)C(=O)c1cc(C)cc(C(=O)N[C@@H](Cc2ccccc2)[C@H](O)CNCc2cccc(I)c2)c1	ATCC 35775	agar diffusion	-	zone	100 µg/disc	24 mm
O=C(Nc1ccccc1)c1ccccc1OP(=O)(Oc1ccccc1)Oc1ccccc1	My 235/80	-	21 d	MIC	-	500 µM
O=C(N[C@H]([C@H](O)CNCc1cccc(I)c1)C(F)(F)c1ccccc1)OCc1ccccc1	ATCC 35775	agar diffusion	-	zone	50 µg/disc	12 mm
O=C1c2cc(Br)ccc2OP(=O)(c2ccccc2)N1c1ccc(C(F)(F)F)cc1	My 6509/96	-	7 d	MIC	-	8 µM
NNC(=O)c1ccncc1	6509/96 clinical isolate	broth dilution / absorbance	14 d	MIC100	-	8 µM
CC(C)c1cnc(C(=O)/C=C/c2ccc(Cl)cc2)cn1	Hauduroy	absorbance	-	MIC	-	6.25 µg/mL
CCCNC(=O)Nc1ccc(S(=O)(=O)Nc2cc(C)on2)cc1	6509/96 clinical isolate	broth dilution / absorbance	21 d	MIC100	-	500 µM
NNC(=O)c1ccncc1	Hauduroy	absorbance	-	MIC	-	3.13–12.5 µg/mL
O=C(Nc1ccc(Br)cc1)c1cc(Cl)ccc1OP(=O)(OCc1ccccc1)OCc1ccccc1	My 235/80	-	7 d	MIC	-	32 µM
CC[C@@H](CO)NCCN[C@@H](CC)CO	P	broth dilution	-	MIC	-	0.25 µg/mL
O=C(Nc1ccc(Cl)cc1)c1cc(Cl)ccc1OP(=O)(Oc1ccccc1)c1ccccc1	My 6509/96	-	7 d	MIC	-	8 µM
CC(C)(C)c1cnc(C(=O)/C=C/c2ccccc2Br)cn1	Hauduroy	absorbance	-	MIC	-	12.5 µg/mL
CCCN(CCC)C(=O)c1cc(C)cc(C(=O)N[C@H]([C@H](O)CNCc2cccc(I)c2)C(F)(F)c2ccccc2)c1	262	agar diffusion	-	zone	100 µg/disc	0 mm
Cc1cc(NS(=O)(=O)c2ccc(NC(=O)N3CCC3)cc2)no1	235/80	broth dilution / absorbance	14 d	MIC100	-	4 µM
CC(C)Cc1cnc(C(=O)/C=C/c2ccc(Cl)cc2)cn1	Hauduroy	absorbance	-	MIC	-	12.5 µg/mL
CC(C)=CCC/C(C)=C/CNCCNC1C2CC3CC(C2)CC1C3	T	broth dilution	-	MIC	-	16 µg/mL
Cc1cc(NS(=O)(=O)c2ccc(NC(=O)C(=O)Nc3ccc(S(=O)(=O)Nc4cc(C)on4)cc3)cc2)no1	6509/96 clinical isolate	broth dilution / absorbance	7 d	MIC100	-	8 µM
O=C1c2cc(Cl)ccc2OP(=O)(c2ccccc2)N1c1ccc(Cl)cc1	My 6509/96	-	7 d	MIC	-	16 µM
CCCCc1cnc(C(=O)/C=C/c2ccccc2Br)cn1	Hauduroy	absorbance	-	MIC	-	25 µg/mL

For reference, 3 entries again:

O=C1c2cc(Br)ccc2OP(=O)(c2ccccc2)N1c1ccc(C(F)(F)F)cc1 ; strain or isolate: My 6509/96 ; conditions: 7 d ; read-out: MIC ; result: 8 µM
CC(C)c1cnc(C(=O)/C=C/c2ccc(Cl)cc2)cn1 ; strain or isolate: Hauduroy ; method: absorbance ; read-out: MIC ; result: 6.25 µg/mL
NNC(=O)c1ccncc1 ; strain or isolate: Hauduroy ; method: absorbance ; read-out: MIC ; result: 3.13–12.5 µg/mL